Experimental findings from PMC6627609, “Targeting Quorum Sensing: High-Throughput Screening to Identify Novel LsrK Inhibitors” (International Journal of Molecular Sciences, 2019) are described below.

Amino acid sequences for entries named in this document (tags omitted).
UniProt Q8ZKQ6, whole entry: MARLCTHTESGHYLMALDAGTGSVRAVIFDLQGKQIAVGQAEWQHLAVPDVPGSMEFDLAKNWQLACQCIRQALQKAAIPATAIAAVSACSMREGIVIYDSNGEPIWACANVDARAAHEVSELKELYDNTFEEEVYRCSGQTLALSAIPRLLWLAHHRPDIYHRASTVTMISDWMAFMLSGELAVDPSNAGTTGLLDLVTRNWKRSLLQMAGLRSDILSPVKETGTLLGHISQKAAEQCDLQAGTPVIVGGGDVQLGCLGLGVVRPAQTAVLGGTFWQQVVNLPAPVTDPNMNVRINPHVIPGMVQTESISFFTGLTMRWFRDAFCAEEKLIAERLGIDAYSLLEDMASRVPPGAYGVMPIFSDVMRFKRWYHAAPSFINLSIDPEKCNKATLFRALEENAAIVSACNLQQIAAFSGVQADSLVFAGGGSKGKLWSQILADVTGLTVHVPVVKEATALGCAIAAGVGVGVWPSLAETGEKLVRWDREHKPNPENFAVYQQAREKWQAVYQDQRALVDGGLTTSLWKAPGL

The assay deals with LsrK (Salmonella typhimurium, UniProt Q8ZKQ6). The experiment in a line: LsrK inhibition assay (Kinase-Glo Max Luminescent kinase assay). Conditions: primary screening, 50 µM, tested in singles. Type of assay: biochemical, S. typhimurium. (In Kinase-Glo more light means more ATP remaining.)

Some compounds may have been tested in ways that are not shown here.

Regarding SODIUM NITROPRUSSIDE, the “Inhibition (%)” value was found to be 64%.
